Compound potency records, mixed from different reports. Data source: NIAID ChemDB in PubChem.

All rows: cytotoxicity tests; measure: CC50

CCn is the concentration with n% toxicity to the cells. An empty or dashed field is not shown. Rows are shuffled and stem from different studies.

SMILES | cells | read by | value
O=C(O)c1ccc(-c2c3nc(c(-c4ccc(C(=O)O)cc4)c4ccc([nH]4)c(-c4ccc(C(=O)O)cc4)c4nc(c(-c5ccc(C(=O)O)cc5)c5ccc2[nH]5)C=C4)C=C3)cc1 | MAGI cell | MTT | 40 µM
CC[C@@H](C)[C@@H](N/C=C1\C(=O)C(O)C(C(C)C)=C2C=C(C)C(c3c(C)cc4c(C(C)C)c(O)c(O)c(C=N[C@H](C(=O)O)[C@@H](C)CC)c4c3O)=C(O)C21)C(=O)O.[Na+].[Na+] | GHOST X4/R5 | MTT | 26.48 µM
COc1cc([C@@H]2c3cc4c(cc3[C@H](O)[C@H]3COC(=O)[C@@H]23)OCO4)cc(OC)c1OC | Jurkat cells | luminescence | 0.7 µM
O=C(O[C@@H]1O[C@@H]2COC(=O)c3cc(O)c(O)c(O)c3-c3c(cc(O)c(O)c3O)C(=O)O[C@H]([C@H]1O)[C@@H]2O)c1cc(O)c(O)c(O)c1 | MAGI | XTT | 417 µM
Cc1ccccc1NC(=O)CSc1sc(N)nc1-c1ccc(Br)cc1Br | MDCK cells | MTS | 50.66 µM
COc1c(-c2coc3cc4c(cc3c2=O)CC(O)C(C)(C)O4)ccc2c1C=CC(C)(C)O2 | Jurkat cells | luminescence | >100 µM
NC(=O)c1nn(Cc2ccc(NC(=O)c3ccccc3)cc2)c2ccccc12 | Huh7.5.1 | MTT | >10 µM
O=c1[nH]cnc2c1ncn2[C@@H]1C=C(CO)[C@@H](O)[C@H]1O | PRK | - | >50 µg/mL
NC(=O)c1nn(Cc2cccc(NC(=O)c3ccccc3)c2)c2ccccc12 | Huh7.5.1 | MTT | >10 µM
C[C@H]1O[C@@H](O[C@H]2CC[C@@]3(C)[C@H](CC[C@@H]4[C@@H]3CC[C@]3(C)[C@@H](C5=CC(=O)OC5)C(O)C[C@]43O)C2)C[C@H](O)[C@@H]1O[C@@H]1O[C@H](CO)[C@@H](O)[C@H](O)[C@H]1O | GMK AH1 | MTT | >250 µM
CC1=NN=C(C)C2C=C([N+](=O)[O-])C=C12 | MOUSE EMT6 | - | 39.7 µM
C[C@H]1O[C@@H](O[C@H]2CC[C@@]3(C)[C@H](CC[C@@H]4[C@@H]3C[C@@H](O)[C@]3(C)[C@@H](C5=CC(=O)OC5)CC[C@]43O)C2)C[C@H](O)[C@@H]1O[C@H]1C[C@H](O)[C@H](O[C@H]2C[C@H](O)[C@H](O[C@@H]3C[C@H](CO)[C@@H](O)[C@H](O)[C@H]3O)[C@@H](C)O2)[C@@H](C)O1 | GMK AH1 | MTT | >250 µM
Nc1nc2c(ncn2COC2COP(=O)(O)OC2)c(=O)[nH]1 | HEF | - | 62 µg/mL
CN[C@@H]1[C@@H](O)[C@@H](O[C@@H]2[C@@H](O)[C@H](O[C@H]3O[C@H]([C@H](C)N)[C@@H](O)[C@H](O)[C@H]3N)[C@@H](N)C[C@H]2N)OC[C@]1(C)O | HeLa | - | >100 µg/mL
NC(=O)c1nn(Cc2cccc(NC(=O)c3cccnc3)c2)c2ccccc12 | Huh7.5.1 | MTT | >10 µM
CC(=O)O[C@H]1[C@@H](O)C[C@H](O[C@H]2[C@@H](O)C[C@H](O[C@H]3[C@@H](O)C[C@H](O[C@H]4CC[C@@]5(C)[C@H](CC[C@@H]6[C@@H]5CC[C@]5(C)[C@@H](C7=CC(=O)OC7)CC[C@]65O)C4)O[C@@H]3C)O[C@@H]2C)O[C@@H]1C | GMK AH1 | MTT | >250 µM
COc1cc2c(c(OC)c1OC)-c1ccc(O)c(=O)cc1[C@@H](NC(C)=O)CC2 | Jurkat cells | luminescence | >100 µM
C[C@H]1O[C@@H](O[C@H]2[C@@H](O)C[C@H](O[C@H]3CC[C@@]4(C)[C@H](CC[C@@H]5[C@@H]4CC[C@]4(C)[C@@H](C6=CC(=O)OC6)CC[C@]54O)C3)O[C@@H]2C)C[C@H](O)[C@@H]1O | GMK AH1 | MTT | >250 µM
NC(=O)c1ncn([C@@H]2O[C@H](CO)[C@@H](O)[C@H]2O)n1 | PRK | - | >5 µg/mL
CCCCC/C=C\C/C=C\C/C=C\C/C=C\CCCC(=O)O[C@H]1CC[C@@]2(C)C(=CC[C@H]3[C@@H]4CC[C@H]([C@H](C)CCCC(C)C)[C@@]4(C)CC[C@@H]32)C1 | HeLa | - | 150 µg/mL
CC1=CC2=C(C(C)C)C(O)C(=O)/C(=C\NC(C)(C)C(=O)O)C2C(O)=C1c1c(C)cc2c(C(C)C)c(O)c(O)c(C=NC(C)(C)C(=O)O)c2c1O.[Na+].[Na+] | GHOST | MTT | 53.27 µM
C[C@]12CC[C@H](O)CC1=CC[C@@H]1[C@@H]2CC[C@]2(C)C(=O)CC[C@@H]12 | PBL(PHA-M) | - | >100 µM
O=C1C=CC(=O)c2c(O)c(Cl)c(Cl)c(O)c21 | Jurkat cells | luminescence | 0.7 µM
C[C@H]1O[C@@H](O[C@H]2[C@@H](O)C[C@H](O[C@H]3CC[C@@]4(C)[C@H](CC[C@@H]5[C@@H]4C[C@@H](O)[C@]4(C)[C@@H](C6=CC(=O)OC6)CC[C@]54O)C3)O[C@@H]2C)C[C@H](O)[C@@H]1O | GMK AH1 | MTT | 285 µM
CC(N)C12CC3CC(CC(C3)C1)C2 | MDCK cells | MTS | 258 µM
C/C=C/C=C/C1OC(O)(C(CC)C(=O)NC/C=C/C=C(\C)C(OC)C(C)C2OC(/C=C/C=C/C=C(\C)C(=O)c3c(O)ccn(C)c3=O)C(O)C2O)C(O)C(OC2OC(C)C(OC3OC(C)C(OC)C(O)C3OC)C(OC)C2O)C1(C)C | HeLa | - | 20 µg/mL
CC1=CC2=C(C(C)C)C(O)C(=O)/C(=C\N[C@H](CC(C)C)C(=O)O)C2C(O)=C1c1c(C)cc2c(C(C)C)c(O)c(O)c(C=N[C@@H](CC(C)C)C(=O)O)c2c1O.[Na+].[Na+] | GHOST X4/R5 | MTT | 43.66 µM
Cc1cn([C@H]2C[C@H](N=[N+]=[N-])[C@@H](CO)O2)c(=O)[nH]c1=O | PBM | XTT | >4 µM
Nc1nccc2c1ncn2[C@@H]1O[C@H](CO)[C@@H](O)[C@H]1O | PRK | - | >400 µg/mL
Nc1ncnc2c1ncn2[C@H]1[C@H](O)[C@H](O)[C@]2(CO)O[C@H]12 | PRK | - | 28 µg/mL
O=C([O-])c1cc(COc2ccc(-c3c4nc(c(-c5ccc(OCc6cc(C(=O)[O-])cc(C(=O)[O-])c6)cc5)c5ccc([n-]5)c(-c5ccc(OCc6cc(C(=O)[O-])cc(C(=O)[O-])c6)cc5)c5nc(c(-c6ccc(OCc7cc(C(=O)[O-])cc(C(=O)[O-])c7)cc6)c6ccc3[n-]6)C=C5)C=C4)cc2)cc(C(=O)[O-])c1 | MAGI cell | MTT | >100 µM
CC1=NN=C(C)C2C=C(C#N)C(Cl)=C12 | MOUSE EMT6 | - | 10.4 µM
CO[C@H]1[C@@H](O)C[C@H](O[C@H]2[C@@H](O)C[C@H](O[C@H]3[C@@H](O)C[C@H](O[C@H]4CC[C@@]5(C)[C@H](CC[C@@H]6[C@@H]5CC[C@]5(C)[C@@H](C7=CC(=O)OC7)CC[C@]65O)C4)O[C@@H]3C)O[C@@H]2C)O[C@@H]1C | GMK AH1 | MTT | >250 µM
NC(=O)c1nn(Cc2ccccc2N)c2ccccc12 | Huh7.5.1 | MTT | >10 µM
CO[C@@H]1[C@@H](O[C@@H]2O[C@H](C)[C@@H](O[C@H]3C[C@@](C)(O)[C@@H](O)[C@H](C)O3)[C@H](N(C)C)[C@H]2O)[C@@H](CC=O)C[C@@H](C)[C@@H](O)/C=C/C=C/C[C@@H](C)OC(=O)C[C@H]1O | HeLa | - | 20 µg/mL
C=C(CCC(C)C1CCC2C3CC=C4C[C@@H](O)CC[C@]4(C)C3CC[C@]12C)C(C)C | Hs27 | ATP / luminescence | 58 µM
CO[C@H]1C[C@H](O[C@H]2[C@@H](O)C[C@H](O[C@H]3[C@@H](O)C[C@H](O[C@H]4CC[C@@]5(C)[C@H](CC[C@@H]6[C@@H]5CC[C@]5(C)[C@@H](C7=CC(=O)OC7)CC[C@]65O)C4)O[C@@H]3C)O[C@@H]2C)O[C@H](C)[C@H]1O | GMK AH1 | MTT | >250 µM
Nc1ncnc2c1ncn2[C@@H]1C=C(CO)[C@@H](O)[C@H]1O | PRK | - | 100 µg/mL
Cc1cc2c(C(C)C)c(O)c(O)c(C=O)c2c(O)c1-c1c(C)cc2c(C(C)C)c(O)c(O)c(C=O)c2c1O | GHOST X4/R5 | MTT | 6.85 µM
C[C@]12CC[C@H]3[C@@H](CC[C@]4(O)C[C@@H](O[C@@H]5O[C@@H](O)[C@H](O)[C@@H](O)[C@H]5O)CC[C@]34C=O)[C@@]1(O)CC[C@@H]2C1=CC(=O)OC1 | GMK AH1 | MTT | >250 µM
NC(=O)c1nn(Cc2cccc(NC(=O)c3ccccc3[N+](=O)[O-])c2)c2ccccc12 | Huh7.5.1 | MTT | >10 µM